Results of unrelated studies side by side (data: NIAID ChemDB).

Common to all: target-level tests; species: HIV-1; protein: Protease; endpoint: IC50

Blank or dashed fields: not listed here. Two numbers with a dash give a range or band. Lines come from different laboratories, so protocols vary. ICn: concentration for n% inhibition.

smiles	strain	method	setting	result
CC(C)C[C@H](NC(=O)[C@H](CC(=O)O)NC(=O)[C@@H](N)Cc1ccc(O)cc1)C(=O)O		fluorescence		9 µM
CC(C)[C@H](N)C(=O)N[C@@H](Cc1ccccc1)C(O)[C@H](Cc1ccccc1)NC(=O)[C@@H](NC(=O)OCc1ccccc1)C(C)C		fluorescence		<0.01 µM
CC(C)[C@H](NC(=O)N(C)Cc1ccccn1)C(=O)N[C@@H](Cc1ccccc1)[C@H](O)[C@H](O)[C@H](Cc1ccccc1)NC(=O)[C@@H](NC(=O)N(C)Cc1ccccn1)C(C)C		HPLC		0.0012 µM
Cc1cccc(C)c1OCC(=O)N[C@@H](Cc1ccccc1)[C@H](O)C(=O)N1CSC(C)(C)[C@H]1C(=O)NCc1ccncc1		HPLC		<0.05 µM
CC(C)(C)OC(=O)N[C@@H]1C[C@@H]2O[C@@H]2CN(Cc2ccccc2)C1=O		fluorescence		10.5 µM
Cc1c(O)cccc1C(=O)N[C@@H](Cc1ccccc1)[C@H](O)C(=O)N1CSC(C)(C)C1C(=O)NC(C)(C)c1ccccc1		HPLC		<0.05 µM
C[C@H]1[C@H](C)CC[C@]2(C(=O)O)CC[C@]3(C)C(=CC[C@@]4(C)[C@@]3(C)CC[C@H]3C(C)(C)C(=O)CC[C@@]34C)[C@H]12		HPLC		7.5 µM
CC[C@H](C)[C@H](NC(=O)[C@@H]1CCCN1C[C@@H](O)[C@H](Cc1ccccc1)NC(=O)[C@H](CC(N)=O)NC(=O)[C@H](CC(C)C)NC(=O)[C@H](CO)NC(C)=O)C(=O)N[C@H](C(=O)OC)C(C)C		fluorescence		0.022 µM
Cc1ccc(C(=O)N(C)Cc2ccccc2)cc1C(=O)N[C@@H](Cc1ccccc1)[C@@H](O)CN1CC2CCCCC2CC1C(=O)NC(C)(C)C		fluorescence		0.0191 µg/mL
CC(C)[C@H](NC(=O)OCc1ccccc1)C(=O)N[C@@H](CSC1CCCCC1)[C@@H](O)[C@H](O)[C@H](CSC1CCCCC1)NC(=O)[C@@H](NC(=O)OCc1ccccc1)C(C)C		fluorescence		<0.1 µM
Cc1ccc(C(=O)N(C)Cc2cccnc2)cc1C(=O)N[C@@H](Cc1ccccc1)[C@@H](O)CN1C[C@H]2CCCC[C@H]2C[C@H]1C(=O)NC(C)(C)C		fluorescence		0.0045 µg/mL
CC(=O)N[C@@H](Cc1ccc(O)cc1)C(=O)N[C@@H](CCC(=O)O)C(=O)N[C@@H](Cc1c[nH]c2ccccc12)C(=O)O		fluorescence		21 µM
CC(C)(C)OC(=O)N[C@@H](Cc1ccccc1)[C@H](O)CNC[C@@H](O)[C@H](Cc1ccc(OCC(=O)N2CCOCC2)cc1)NC(=O)OC(C)(C)C		HPLC		0.034 µM
CC(C)(C)OC(=O)N[C@@H]1C[C@H](O)[C@H](O)CN(Cc2ccccc2)C1=O		fluorescence		95.3 µM
O=c1c(O)c(-c2ccc(O)c(O)c2)oc2cc(O)c(O)c(O)c12	SF2	HPLC / fluorescence		1000 µM
CC[C@@]1(O)C(=O)NCc2c1cc1n(c2=O)Cc2cc3ccccc3nc2-1		substrate cleavage / fluorescence		>100 µM
CC[C@H](C)[C@H](NC(=O)[C@H](CCC(N)=O)NC(=O)CCCOc1ccc2ccc(OCCCC(=O)N[C@H](C(=O)N[C@@H](CC(C)C)C(=O)N[C@H](C(=O)OC)C(C)C)C(C)C)nc2c1)C(=O)N[C@H](C(N)=O)[C@@H](C)O		fluorescence		>5.7 µM
C[C@H](CC(=O)C[C@@H](C)[C@H]1CC(=O)[C@@]2(C)C3=C(C(=O)C[C@]12C)[C@@]1(C)CCC(=O)C(C)(C)[C@@H]1C[C@@H]3O)C(=O)O				180 µM
CC[C@H](C)[C@@H]1NC(=O)[C@@H](NC[C@@H](O)[C@H](Cc2ccccc2)NC(=O)[C@@H](NC(=O)[C@H](CC(C)C)NC(C)=O)C(C)C)Cc2ccc(cc2)OCCCNC1=O		fluorescence		0.002 µM
CCN[C@H]1CO[C@@H]2OC[C@H](OC(=O)N[C@@H](Cc3ccccc3)[C@H](O)CN(CC(C)C)S(=O)(=O)c3ccc4nc(NC5CC5)sc4c3)[C@@H]21		substrate cleavage / fluorescence		0.0008 µM
Cc1cc(SC2=C(O)CC(CCc3ccccc3)(C(C)C)OC2=O)c(C(C)(C)C)cc1OCCO		HPLC		0.00257 µM
COC(=O)[C@@H](NC(=O)[C@H](CC(C)C)NC(=O)[C@@H](NC(=O)CCCOc1ccc2ccc(OCCCC(=O)N[C@@H](Cc3ccc(O)cc3)C(=O)N[C@@H](CCC(=O)OC(C)(C)C)C(=O)N[C@@H](CC(C)C)C(N)=O)cc2n1)C(C)C)C(C)C		fluorescence		1 µM
[O]=[V]([O-])([O-])[O-]		fluorescence		1–20 µM
C=C(C)[C@@H]1CC[C@]2(C(=O)OC)CC[C@]3(C)[C@H](CC[C@@H]4[C@@]5(C)CC[C@H](O)C(C)(C)[C@@H]5CC[C@]43C)[C@@H]12		HPLC		>25 µM
Cc1c(O)cccc1C(=O)N[C@@H](Cc1ccccc1)[C@H](O)C(=O)N1CSC(C)(C)[C@H]1C(=O)NC(C)(C)C		HPLC		<0.05 µM
CC(NC(=O)OCc1ccccc1)C(=O)NC(C(=O)NC12NC(=O)C3(O)C4C5CC(C6C5C3C61)C42)C(C)C		absorbance		0.6 µM
COC(=O)[C@]12CCC(C)(C)C[C@H]1C1=CC[C@@H]3[C@@]4(C)CC[C@@H](NC(=O)CCCCC(=O)OC[C@H]5O[C@@H](n6cc(C)c(=O)[nH]c6=O)C[C@@H]5N=[N+]=[N-])C(C)(C)[C@@H]4CC[C@@]3(C)[C@]1(C)CC2		HPLC		8 µM
CC(C)[C@H](NC(=O)N(C)Cc1ccccn1)C(=O)N[C@@H](Cc1ccccc1)[C@@H](O)[C@H](O)[C@H](Cc1ccccc1)NC(=O)[C@@H](NC(=O)N(C)Cc1ccccn1)C(C)C		fluorescence		>0.001 µM
C=C(C)C1CC[C@]2(C(=O)O)CC[C@]3(C)[C@H](CC[C@@H]4[C@@]5(C)CC[C@H](OC(=O)CCC(=O)O)C(C)(C)[C@@H]5CC[C@]43C)[C@@H]12		HPLC		6 µM
CCN[C@H]1CO[C@@H]2OC[C@H](OC(=O)N[C@@H](Cc3cc(F)cc(F)c3)[C@H](O)CN(CC(C)C)S(=O)(=O)c3ccc4nc(NC5CC5)sc4c3)[C@@H]21		substrate cleavage / fluorescence		0.001 µM
C[C@H](CCC=C(CO)CO)[C@H]1CC[C@@]2(C)C3=CC[C@H]4C(C)(C)C(=O)CC[C@]4(C)C3=CC[C@]12C				320 µM
CC(C)N(CC(=O)NC12NC(=O)C3(O)C4C5CC(C6C5C3C61)C42)C(=O)CN(C)C(=S)Cc1ncccn1		absorbance		5 µM
CC(C)(C)OC(=O)N[C@@H](Cc1ccccc1)[C@H](O)CNC[C@@H](O)[C@H](Cc1ccccc1)NC(=O)c1ccc2ccccc2n1		HPLC	pH 5.5	>10 µM
C[C@H](CC[C@H](O)C(C)(O)CO)[C@H]1CC[C@@]2(C)C3=CCC4C(C)(C)[C@@H](O)CC[C@]4(C)C3=CC[C@]12C				230 µM
COC(=O)[C@]12CCC(C)(C)CC1C1=CCC3[C@@]4(C)CC[C@H](N)C(C)(C)C4CC[C@@]3(C)[C@]1(C)CC2		HPLC		>20 µM
COc1ccc(S(=O)(=O)N(CC(C)C)CC(O)C(NC(=O)O[C@H]2CCOC2)Sc2ccccc2)cc1	BRU			0.01–1 µM
CC[C@H](C)[C@H](NC(C)=O)C(=O)N[C@@H](CO)C(=O)N[C@@H](Cc1ccc2ccccc2c1)C(=O)N[C@@H](CCC(=O)O)C(=O)N[C@@H](CC(C)C)C(=O)O		fluorescence		0.3 µM
Cc1ccc(C(=O)N(C)Cc2ccc3ccccc3n2)cc1C(=O)N[C@@H](Cc1ccccc1)[C@@H](O)CN1C[C@H]2CCCC[C@H]2C[C@H]1C(=O)NC(C)(C)C		fluorescence		0.0007 µg/mL
O=c1c(O)c(-c2ccc(O)cc2)oc2cc(O)cc(O)c12	SF2	HPLC / fluorescence		250 µM
CC(C)[C@H](NC(=O)OCc1ccccc1)C(=O)N[C@@H](Cc1ccccc1)[C@H](O)[C@@H](O)[C@H](Cc1ccccc1)NC(=O)[C@@H](NC(=O)OCc1ccccc1)C(C)C		fluorescence		<0.001 µM
CC(C)(C)OC(=O)N[C@@H](Cc1ccccc1)[C@H](O)CNC[C@@H](O)[C@H](Cc1ccccc1)NC(=O)C(NC(=O)OCc1ccccc1)C(C)(C)O		HPLC	pH 5.5	<10 µM
CC(C)C(C)/C=C/[C@@H](C)[C@H]1CCC2C3=C[C@@H](O)[C@@]4(O)C[C@@H](O)CC[C@]4(C)C3CC[C@@]21C				180 µM
CC(C)(C)NC(=O)c1ccccc1C[C@H](O)[C@H](Cc1ccccc1)NC(=O)c1cccc(C(=O)N2CCc3ccccc3C2)c1		fluorescence		0.028 µg/mL
CC(C)[C@H](NC(=O)OCc1ccc(-c2ccccc2)cc1)C(=O)N[C@@H](Cc1ccccc1)[C@H](O)CNC[C@@H](O)[C@H](Cc1ccccc1)NC(=O)OC(C)(C)C		HPLC	pH 5.5	<10 µM
CC[C@H](C)/C=C(C)/C=C/C1=CC2=C(Cl)C(=O)[C@](C)(OC(C)=O)C(=O)C2=CO1		HPLC		62.7 µg/mL
NCCCC[C@H](N)C(=O)NC[C@H]1O[C@H](O[C@H]2[C@H](O)[C@@H](O)[C@H](N)C[C@@H]2N)[C@H](N)[C@@H](O)[C@@H]1O		HPLC		>100 µg/mL
COc1cc(-c2cc(=O)c3c(O)c(OC)c(OC)c(OC)c3o2)cc(OC)c1OC	SF2	HPLC / fluorescence		190 µM
CCCC1(CCC)CC(O)=C(Cc2cccc(NS(=O)(=O)c3cn(C)cn3)c2)C(=O)O1		fluorescence		1 µM
Cc1ccc(C(=O)N(C)Cc2ccncc2)cc1C(=O)N[C@@H](CSc1ccccc1)[C@@H](O)CN1C[C@H]2CCCC[C@H]2C[C@H]1C(=O)NC(C)(C)C		fluorescence		0.0028 µg/mL
CC(C)[C@@H](C)/C=C/[C@@H](C)[C@H]1CCC2[C@@]34C=C[C@]5(C[C@@H](O)CC[C@]5(C)C3CC[C@@]21C)OO4				>1000 µM
CCCCOC(=O)COc1ccc(C[C@H](NC(=O)OC(C)(C)C)[C@H](O)CN[C@H]2Cc3ccc(cc3)OCCCNC(=O)[C@H]([C@@H](C)CC)NC2=O)cc1		fluorescence		0.005 µM
CC(C)C[C@H](NC(=O)[C@H](CCC(=O)O)NC(=O)[C@@H](N)Cc1ccc(O)cc1)C(=O)O		fluorescence		75 µM
Cc1c(O)cccc1C(=O)N[C@@H](Cc1ccccc1)[C@H](O)C(=O)N1CSC(C)(C)[C@H]1C(=O)NC1C2CC3CC(C2)CC1C3		HPLC		>0.05 µM
CC(C)(C)OC(=O)N[C@@H](Cc1ccccc1)[C@H](O)CNC[C@@H](O)[C@H](Cc1ccccc1)NC(=O)C(C)(C)O		HPLC	pH 5.5	<10 µM
CC(N)C(=O)NC(C(=O)NC12NC(=O)C3(O)C4C5CC(C6C5C3C61)C42)C(C)C		absorbance		0.75 µM
CC[C@H](C)[C@H](NC(=O)[C@@H]1CCCN1CC(O)[C@@H]1Cc2ccc(cc2)OCC(=O)N[C@@H](CCC(N)=O)C(=O)N[C@@H](C(N)=O)C(=O)N1)C(=O)N[C@H](C(N)=O)C(C)C		fluorescence		0.04 µM
CC(C)[C@H](NC(=O)c1ccc2ccccc2n1)C(=O)N[C@@H](Cc1ccccc1)[C@H](O)CN1CC[C@@H](OCc2ccncc2)C[C@H]1C(=O)NC(C)(C)C	IIIB	fluorescence		0.004 µM
CC(C)(C)OC(=O)N[C@H]1C[C@H]2O[C@H]2[C@H](Cc2ccccc2)N(Cc2ccccc2)C1=O		fluorescence		15.7 µM
CC[C@H](C)[C@H](NC(=O)[C@@H]1CCCN1C[C@H](O)[C@H](Cc1ccccc1)NC(=O)[C@H](CC(N)=O)NC(=O)[C@H](CC(C)C)NC(C)=O)C(=O)N[C@H](C(N)=O)C(C)C		fluorescence		0.009 µM

Again, the opening 7 rows:

smiles | strain | method | setting | result
CC(C)C[C@H](NC(=O)[C@H](CC(=O)O)NC(=O)[C@@H](N)Cc1ccc(O)cc1)C(=O)O |  | fluorescence |  | 9 µM
CC(C)[C@H](N)C(=O)N[C@@H](Cc1ccccc1)C(O)[C@H](Cc1ccccc1)NC(=O)[C@@H](NC(=O)OCc1ccccc1)C(C)C |  | fluorescence |  | <0.01 µM
CC(C)[C@H](NC(=O)N(C)Cc1ccccn1)C(=O)N[C@@H](Cc1ccccc1)[C@H](O)[C@H](O)[C@H](Cc1ccccc1)NC(=O)[C@@H](NC(=O)N(C)Cc1ccccn1)C(C)C |  | HPLC |  | 0.0012 µM
Cc1cccc(C)c1OCC(=O)N[C@@H](Cc1ccccc1)[C@H](O)C(=O)N1CSC(C)(C)[C@H]1C(=O)NCc1ccncc1 |  | HPLC |  | <0.05 µM
CC(C)(C)OC(=O)N[C@@H]1C[C@@H]2O[C@@H]2CN(Cc2ccccc2)C1=O |  | fluorescence |  | 10.5 µM
Cc1c(O)cccc1C(=O)N[C@@H](Cc1ccccc1)[C@H](O)C(=O)N1CSC(C)(C)C1C(=O)NC(C)(C)c1ccccc1 |  | HPLC |  | <0.05 µM
C[C@H]1[C@H](C)CC[C@]2(C(=O)O)CC[C@]3(C)C(=CC[C@@]4(C)[C@@]3(C)CC[C@H]3C(C)(C)C(=O)CC[C@@]34C)[C@H]12 |  | HPLC |  | 7.5 µM